Experimental data: article PMC6151383 (Molecules : A Journal of Synthetic Chemistry and Natural …, 2017)

Tests used:
[1] = system: Mycobacterium tuberculosis 331/88 (H37Rv); experiment: In vitro antimycobacterial MIC, M. tuberculosis; assay type: cell-based; settings: SI = IC50 (HepG2)/MIC
[2] = system: Trichophyton interdigitale 445; experiment: Antifungal microdilution broth MIC, T. interdigitale; assay type: cell-based; settings: SI = IC50 (HepG2)/MIC
Candida sp. = experiment: Selectivity index for Candida sp. (IC50 HepG2/MIC); assay type: cell-based; settings: all Candida species
M. kansasii = experiment: M. kansasii, both strains taken together (SI and text ranges); assay type: cell-based, Mycobacterium kansasii; settings: SI = IC50 (HepG2)/MIC, both strains of M. kansasii

| Structure (SMILES) | SI for Mtb. [1] | SI for TI [2] | SI for Candida sp. (Candida sp.) | SI for M. kansasii (M. kansasii) |
| --- | --- | --- | --- | --- |
| O=S(=O)(Nc1ncccn1)c1ccc(N=Cc2cc(Cl)cc(I)c2O)cc1 [Compound 2o, 4-[(5-Chloro-2-hydroxy-3-iodobenzylidene)amino]-N-(pyrimidin-2-yl)benzenesulfonamide] | 0.47 | 30.37 | 7.58 | 0.24–0.95 |
| O=S(=O)(Nc1ncccn1)c1ccc(N=Cc2cc(F)ccc2O)cc1 [Compound 2b, 4-[(5-Fluoro-2-hydroxybenzylidene)amino]-N-(pyrimidin-2-yl)benzenesulfonamide] | >2 | – | – | >1 |
| O=S(=O)(Nc1ncccn1)c1ccc(N=Cc2cc(I)ccc2O)cc1 [Compound 2e, 4-[(2-Hydroxy-5-iodobenzylidene)amino]-N-(pyrimidin-2-yl)benzenesulfonamide] | 1.25–2.50 | 4.99 | 1.25–2.50 | 1.25–4.88 |
| O=S(=O)(Nc1ncccn1)c1ccc(N=Cc2cc(Cl)cc(Br)c2O)cc1 [Compound 2n, 4-[(3-Bromo-5-chloro-2-hydroxybenzylidene)amino]-N-(pyrimidin-2-yl)benzenesulfonamide] | 0.74 | 1.49 | 1.49–2.97 | 0.37–1.49 |
| O=S(=O)(Nc1ncccn1)c1ccc(N=Cc2cc(O)ccc2O)cc1 [Compound 2i, 4-[(2,5-Dihydroxybenzylidene)amino]-N-(pyrimidin-2-yl)benzenesulfonamide] | >4 | > 256.41 | > 16 | >4 |
| O=S(=O)(Nc1ncccn1)c1ccc(N=Cc2cc(Br)ccc2O)cc1 [Compound 2d, 4-[(5-Bromo-2-hydroxybenzylidene)amino]-N-(pyrimidin-2-yl)benzenesulfonamide] | 4.98–9.94 | 2.55 | 0.64–2.55 | 2.55–4.97 |
| Nc1ccc(S(=O)(=O)Nc2ncccn2)cc1 [SDZ 1, sulfadiazine, reference compound] | >24 | – | – | >46.88 |
| Cc1ccc(O)c(C=Nc2ccc(S(=O)(=O)Nc3ncccn3)cc2)c1 [Compound 2g, 4-[(2-Hydroxy-5-methylbenzylidene)amino]-N-(pyrimidin-2-yl)benzenesulfonamide] | 4.56 | – | – | 2.28–9.11 |
| O=S(=O)(Nc1ncccn1)c1ccc(N=Cc2cc(Cl)cc(Cl)c2O)cc1 [Compound 2m, 4-[(3,5-Dichloro-2-hydroxybenzylidene)amino]-N-(pyrimidin-2-yl)benzenesulfonamide] | 0.91 | 0.91 | 0.91–3.66 | 0.23–1.83 |
| O=S(=O)(Nc1ncccn1)c1ccc(N=Cc2cccc(Cl)c2O)cc1 [Compound 2l, 4-[(3-Chloro-2-hydroxybenzylidene)amino]-N-(pyrimidin-2-yl)benzenesulfonamide] | 2.57–5.14 | 5.14 | 0.64–2.57 | 2.57–10.03 |
| CC(C)(C)c1ccc(O)c(C=Nc2ccc(S(=O)(=O)Nc3ncccn3)cc2)c1 [Compound 2j, 4-{[5-(Tert-butyl)-2-hydroxybenzylidene]amino}-N-(pyrimidin-2-yl)benzenesulfonamide] | 0.73–1.46 | 0.73 | – | 0.73–2.85 |
| O=[N+]([O-])c1ccc(O)c(C=Nc2ccc(S(=O)(=O)Nc3ncccn3)cc2)c1 [Compound 2f, 4-[(2-Hydroxy-5-nitrobenzylidene)amino]-N-(pyrimidin-2-yl)benzenesulfonamide] | 0.56 | 2.25 | ≤0.56 | 0.28–1.12 |
| O=S(=O)(Nc1ncccn1)c1ccc(N=Cc2cc(I)cc(I)c2O)cc1 [Compound 2p, 4-[(2-Hydroxy-3,5-diiodobenzylidene)amino]-N-(pyrimidin-2-yl)benzenesulfonamide] | 0.15 | 2.43 | 4.87–9.73 | 0.15–0.61 |
| O=S(=O)(Nc1ncccn1)c1ccc(N=Cc2ccccc2O)cc1 [Compound 2a, 4-[(2-Hydroxybenzylidene)amino]-N-(pyrimidin-2-yl)benzenesulfonamide] | > 15.63 | >4 | – | > 15.63 |
| O=S(=O)(Nc1ncccn1)c1ccc(N=Cc2c(O)cccc2Cl)cc1 [Compound 2k, 4-[(2-Chloro-6-hydroxybenzylidene)amino]-N-(pyrimidin-2-yl)benzenesulfonamide] | 0.82 | – | – | 0.41–1.64 |
| O=[N+]([O-])c1ccc(C=Nc2ccc(S(=O)(=O)Nc3ncccn3)cc2)o1 [Compound 2q, 4-{[(5-Nitrofuran-2-yl)methylene]amino}-N-(pyrimidin-2-yl)benzenesulfonamide] | 0.13 | 0.07 | 0.07 | 0.07–0.26 |
| COc1ccc(O)c(C=Nc2ccc(S(=O)(=O)Nc3ncccn3)cc2)c1 [Compound 2h, 4-[(2-Hydroxy-5-methoxybenzylidene)amino]-N-(pyrimidin-2-yl)benzenesulfonamide] | – | 5.62 | ≤0.70 | 5.62–21.94 |
